Pooled drug test results. Numbers come from NIAID ChemDB, via PubChem.

Shared fields: tests in culture; species: HIV-1; measure: EC50

ECn: concentration that inhibits the pathogen or its effect by n%. Lines come from different laboratories, so protocols vary. An empty or dashed field is not shown. a–b is a range or a potency band.

compound,strain or isolate,mutations,read by,value
CCC(=O)Nc1ccn([C@H]2CC[C@@H](CO)O2)c(=O)n1,,,cytopathic effect,36 µM
CC(C)Cc1cc(-c2ccc(-c3ccc(CCC(=O)O)cc3CC(C)C)cc2C(C)C)ccc1OCC(=O)O,,,,15.7 µg/mL
CC[C@@H](O)[C@]1(C)C[C@H](C)[C@@](O)([C@H]2C[C@H](C)[C@H]([C@]3(C)CC[C@H]([C@@H]4CC[C@@]5(O[C@H]([C@@H](C)[C@@H](OC)[C@H](C)C(=O)O)[C@H](C)[C@@H](OC)[C@H]5C)O4)O3)O2)O1,,,MTT / ELISA,5 µg/mL
Cc1cc(=O)[nH]c(N2C(=O)/C(=C\c3ccccc3O)N=C2c2ccccc2)n1,,,RT activity,51.26 µg/mL
O=C1Nc2ccc(Cl)cc2[C@@](C#CC2CC2)(C(F)(F)F)[C@H]1OCc1ccncc1,,RT-K103N,,<0.05 µM
CCOP(=O)(OCC)C(F)(F)C[C@H]1CO[C@@H](n2cc(C)c(=O)[nH]c2=O)[C@H]1F,,,cytopathic effect,>100 µM
Cc1cc(C)c(Nc2ccnc(Nc3ccc(C#N)cc3)n2)c(C)c1,LAI,,,0.0009 µM
CC1=C(C(=O)Nc2ccc(Cl)c(C(O)OC(C)C)c2)SCCS1,,,,>6.8 µg/mL
CCC(=O)Nc1ccn([C@H]2CC[C@@H](COC(=O)CC)O2)c(=O)n1,,,cytopathic effect,>25 µM
c1ccc(COC[C@H]2O[C@H](O[C@H]3[C@H](OCc4ccccc4)[C@H](OCc4ccccc4)[C@@H]4OC[C@H]3O4)[C@H](OCc3ccccc3)[C@@H](OCc3ccccc3)[C@H]2OCc2ccccc2)cc1,IIIB,,MTT,0.23 µg/mL
CC(=O)N1CCSC(C(=O)Nc2ccc(Cl)c(C(O)OC(C)C)c2)=C1C,,,,25.7 µg/mL
CCOP(=O)(OCC)C(F)(F)C[C@H]1CO[C@@H](n2ccc(=O)[nH]c2=O)[C@H]1F,,,cytopathic effect,>100 µM
C[C@H]1O[C@](C#CC2CC2)(C(F)(F)F)c2cc(Cl)ccc2NC1=O,,RT-K103N,,<1.13 µM
Nn1cc[nH]c1=S,NL4-3,,,0.2–4 µg/mL
CCN1C(c2ccccc2)c2cc(Cl)ccc2S1(=O)=O,,,p24 / RT activity,19.3 µM
Nc1ncnc2c1ncn2[C@@H]1OC[C@H](CC(F)(F)P(=O)(O)O)[C@@H]1F,,,cytopathic effect,>100 µM
CN1C(c2ccccc2)(C(F)(F)F)c2ccccc2S1(=O)=O,,,p24 / RT activity,0.46 µM
CCOP(=O)(OCC)C(F)(F)C[C@H]1CO[C@@H](n2ccc(N)nc2=O)[C@H]1F,,,cytopathic effect,>100 µM
Nc1ccc(CO[C@H]2C(=O)Nc3ccc(Cl)cc3[C@@]2(C#CC2CC2)C(F)(F)F)cc1,,RT-K103N,,<1.082 µM
CN1CC(=O)C(=O)C=C1Cn1cnc([N+](=O)[O-])c1Sc1ccc(Cl)cc1,IIIB,,MTT,3.65 µM
O=C1CO[C@](C#Cc2ccccc2)(C(F)(F)F)c2cc(Cl)ccc2N1,,RT-K103N,,<4.1 µM
COc1ccc2c(c1)N=CN1CCc3c([nH]c4ccccc34)C3=NCC[C@@]321,,,syncytia,0.95 µg/mL
CC1=N/C(=C/c2ccc(N(C)C)cc2)C(=O)N1c1nc(C)cc(Cl)n1,,,RT activity,66.81 µg/mL
CC(C)(CN)NC(=O)[C@@H]1CCCN1C(=O)[C@@H](O)[C@H](Cc1ccccc1)NC(=O)[C@H](CC(N)=O)NC(=O)OCc1ccccc1,,,,>100 µg/mL
CC1=N/C(=C/c2ccc(N(C)C)cc2)C(=O)N1c1nc(C)cc(=O)[nH]1,,,RT activity,65.86 µg/mL
Cc1cn([C@H]2C[C@H](N=[N+]=[N-])[C@@H](CO)[C@@H]2F)c(=O)[nH]c1=O,,,,100 µg/mL
Nc1ncnc2c1ncn2CC=C(CO)CO,,,,>100 µg/mL
O=c1c(N=Nc2ccc(S(=O)(=O)O)cc2)c(-c2ccccc2)[nH]n1-c1nc(-c2ccccc2)cs1,Clinical isolates,,,157.6 µM
Nc1ccn([C@H]2CC[C@@H](CO)O2)c(=O)n1,NL4-3,V37A V59I S100K S115N R138S D139N A310T,β-galactosidase,0.399 µM
COc1cc(/C=C2/N=C(C)N(c3nc(C)cc(=O)[nH]3)C2=O)cc(OC)c1OC,,,RT activity,71.33 µg/mL
COc1ccc2nc(Nc3nc(Nc4ccc(C#N)cc4)nc(Oc4cc(=O)n(C)c5ccccc45)n3)sc2c1,IIIB,,MTT,4.45 µg/mL
CC(=O)Nc1nc(-c2cccc(NC(=O)[C@@H](N)CCCN=C(N)N)c2)cs1,NL4-3,,luciferase,>50 µM
Cc1ncnc(C)c1C(=O)N1C[C@H]2CN(CCC(c3ccccc3)C3CCN(C(=O)CC(C)C)CC3)C[C@H]2C1,,,cell fusion,2.819 µM
O=c1ccn([C@@H]2O[C@H](CO)[C@@H](O)[C@H]2C(F)(F)F)c(=O)[nH]1,,,,>100 µM
O=C(N/N=C/c1ccc(-c2ccc(Br)cc2)o1)c1cccc([N+](=O)[O-])c1,,,luciferase / β-galactosidase,16 µM
Cc1ncnc(C)c1C(=O)N1C[C@H]2CN(CCC(c3ccccc3)C3CCN(S(=O)(=O)C(C)C)CC3)C[C@H]2C1,,,cell fusion,0.099 µM
Nc1ccn([C@@H]2OC[C@H](CC(F)(F)P(=O)(O)O)[C@@H]2F)c(=O)n1,,,cytopathic effect,>100 µM
CC(C)OC(O)c1cc(NC(=S)C2=C(c3ccccc3)OCCS2)ccc1Cl,,,,>8.4 µg/mL
COC(=O)C(=O)N1CCC[C@H]1C(=O)N[C@@H](Cc1ccccc1)C(=O)Nc1cccc(OCC(=O)N[C@@H](CC(N)=O)C(=O)N[C@@H](Cc2ccccc2)[C@H](O)C(=O)N2CCC[C@H]2C(=O)NC(C)(C)C)c1,,,,100 µg/mL
COc1ccc(/C=C2/N=C(C)N(c3nc(C)cc(Cl)n3)C2=O)cc1,,,RT activity,56.05 µg/mL
Cc1[nH]c2ccccc2c1CC(=O)N[C@@H](Cc1ccccc1)C(=O)N(C)c1ccccn1,NL4-3,T107N,cytopathic effect,24 µM
CC(C)CN(C[C@@H](O)[C@H](Cc1ccccc1)NC(=O)O[C@H]1CO[C@@H]2OCC[C@@H]21)S(=O)(=O)c1ccc2c(C=NCCN(C)C)c(O)[nH]c2c1,,,MTT,>0.4 µM
OCC(=CCn1cnc2c(Cl)ncnc21)CO,,,,>100 µg/mL
CCOCn1c(Cc2ccccc2)c(C(C)C)c(=O)[nH]c1=O,,RT-Y181C,,>100 µM
Nc1nc2c(ncn2C/C=C(/CO)c2ccccc2)c(=O)[nH]1,,,,>100 µg/mL
CC(=O)Oc1ccccc1C(=O)N(C(=S)OCCOc1ccccc1)c1ccccc1,,,,9.5 µM
O=c1[nH]cnc2c1ncn2CC=C(CO)CO,,,,>100 µg/mL
CC1=C/C(=C\[C@H](C)[C@@]23OC(=O)C[C@]2(C)[C@H]2C[C@]4(O)C[C@@H]5C(=O)OC(C)(C)[C@]5(C)CC[C@@H]4[C@H]2O3)OC1=O,,,cytopathic effect,>100 µg/mL
O=C1Nc2ccc(Cl)cc2[C@@](/C=C/C2CC2)(C(F)(F)F)N1,,RT-K103N,,<0.027 µM
CC1=N/C(=C/c2ccco2)C(=O)N1c1nc(C)cc(=O)[nH]1,,,RT activity,83.03 µg/mL
CC[C@H](CC[C@@H](C)[C@H]1CC[C@H]2[C@@H]3CCC4=CC(=O)CC[C@]4(C)[C@H]3CC[C@]12C)C(C)C,,,,3.48 µg/mL
Cc1ccc([C@H]2c3ccccc3S(=O)(=O)N2C)cc1,,,p24 / RT activity,1.53 µM
Cn1c(=O)cc(Oc2nc(Nc3ccc(C#N)cc3)nc(Nc3nc4ccccc4s3)n2)c2ccccc21,IIIB,,MTT,>82.93 µg/mL
C[C@@H]1O[C@](C#CC2CC2)(C(F)(F)F)c2cc(F)ccc2NC1=O,,RT-K103N,,<0.333 µM
O=c1ccn([C@@H]2OC[C@H](CC(F)(F)P(=O)(O)O)[C@@H]2F)c(=O)[nH]1,,,cytopathic effect,>100 µM
CCOP(=O)(CO[C@@]1(c2ccccc2)C[C@@H](n2cnc3c(N)ncnc32)[C@H](O)[C@@H]1O)OCC,,,,>100 µM
Cn1c(=O)cc(Oc2nc(Nc3ccc(C#N)cc3)nc(Oc3cc(=O)oc4ccccc34)n2)c2ccccc21,IIIB,,MTT,>69.2 µg/mL
Cc1ncnc(C)c1C(=O)N1C[C@H]2CN(CCC(c3cccc(F)c3)C3CCN(CC(F)F)CC3)C[C@H]2C1,,,cell fusion,0.011 µM
Cc1cc(C)cc(C[C@@H]2[C@H](O)[C@@H](O)[C@@H](Cc3ccccc3)N(Cc3ccc4[nH]nc(N)c4c3)C(=O)N2Cc2ccccc2)c1,HXB2,,,<0.1 µM
COC(=O)C(=O)N1CCC[C@H]1C(=O)N[C@H](Cc1ccccc1)C(=O)N[C@H](C)C(=O)Nc1ccc(OCC(=O)N[C@@H](CC(N)=O)C(=O)N[C@@H](Cc2ccccc2)[C@H](O)C(=O)N2CCC[C@H]2C(=O)NC(C)(C)C)cc1,,,,>100 µg/mL
Cc1cc(Cl)nc(N2C(=O)/C(=C\c3ccccc3O)N=C2c2ccccc2)n1,,,RT activity,46.43 µg/mL
C=C(C)C#Cc1ccc(-c2ccc(Cl)c3c(NS(C)(=O)=O)nn(CC(F)(F)F)c23)c([C@H](Cc2cc(F)cc(F)c2)NC(=O)Cn2nc(C(F)(F)F)c3c2C(F)(F)[C@@H]2C[C@H]32)n1,IIIB,,luminescence,0.021 µM
Cc1cc(S(N)(=O)=O)ccc1NC(=O)COc1ccc(F)cc1Oc1ccc2cc(C#N)ccc2c1Br,A17,,,0.181 µM
COc1cc(-c2nnc(Sc3nc(Nc4ccc(C#N)cc4)nc(Oc4cc(=O)n(C)c5ccccc45)n3)o2)cc(OC)c1OC,IIIB,,MTT,>65.13 µg/mL
CCCCN1C(c2cccc(Cl)c2)c2ccccc2S1(=O)=O,,,p24 / RT activity,1.35 µM
O=C1Nc2ccc(Cl)cc2[C@@](C#CC2CC2)(C(F)(F)F)N1,,RT-K103N,,<0.01 µM
Cn1c(=O)cc(Oc2nc(Nc3ccc(C#N)cc3)nc(Oc3cc(=O)n(C)c4ccccc34)n2)c2ccccc21,IIIB,,MTT,>79.48 µg/mL
Cc1ncnc(C)c1C(=O)N1C[C@H]2CN(CCC(c3cc(F)cc(F)c3)C3CN(S(=O)(=O)C4CC4)C3)C[C@H]2C1,,,cell fusion,0.063 µM
Cc1cc(Cl)nc(N2C(=O)/C(=C\c3ccc(Cl)cc3)N=C2c2ccccc2)n1,,,RT activity,52.09 µg/mL
Cc1cc(=O)oc(C)c1C(=O)N1C[C@H]2CN(CCC(c3ccccc3)C3CCN(S(C)(=O)=O)CC3)C[C@H]2C1,,,cell fusion,0.037 µM
Cc1cn([C@@H]2CO[C@H](CO)[C@H]2CO)c(=O)[nH]c1=O,,,,0.8 µM
CC1=C(C(=S)Nc2ccc(Cl)c(C(O)OC(C)C)c2)SCCS1,,,,>5.2 µg/mL
C=C(C)[C@@H]1CC[C@]2(C(=O)O)CC[C@]3(C)[C@H](CC[C@@H]4[C@@]5(C)CC[C@H](OC(=O)CC(C)(C)C(=O)O)C(C)(C)[C@@H]5CC[C@]43C)[C@@H]12,IIIB,,,0.0013 µg/mL
CC(C)C#C[C@]1(C(F)(F)F)OCC(=O)Nc2ccc(Cl)cc21,,RT-K103N,,<0.784 µM
CCOCn1c(Cc2ccccc2)c(CO)c(=O)[nH]c1=O,,RT-Y181C,,>100 µM
CC[C@@H]1O[C@](C#CC2CC2)(C(F)(F)F)c2cc(F)ccc2NC1=O,,RT-K103N,,<0.117 µM
CC(C)OC(O)c1cc(NC(=S)C2=COCCS2)ccc1Cl,,,,>8 µg/mL

Repeating the first 7 entries:

compound,strain or isolate,mutations,read by,value
CCC(=O)Nc1ccn([C@H]2CC[C@@H](CO)O2)c(=O)n1,,,cytopathic effect,36 µM
CC(C)Cc1cc(-c2ccc(-c3ccc(CCC(=O)O)cc3CC(C)C)cc2C(C)C)ccc1OCC(=O)O,,,,15.7 µg/mL
CC[C@@H](O)[C@]1(C)C[C@H](C)[C@@](O)([C@H]2C[C@H](C)[C@H]([C@]3(C)CC[C@H]([C@@H]4CC[C@@]5(O[C@H]([C@@H](C)[C@@H](OC)[C@H](C)C(=O)O)[C@H](C)[C@@H](OC)[C@H]5C)O4)O3)O2)O1,,,MTT / ELISA,5 µg/mL
Cc1cc(=O)[nH]c(N2C(=O)/C(=C\c3ccccc3O)N=C2c2ccccc2)n1,,,RT activity,51.26 µg/mL
O=C1Nc2ccc(Cl)cc2[C@@](C#CC2CC2)(C(F)(F)F)[C@H]1OCc1ccncc1,,RT-K103N,,<0.05 µM
CCOP(=O)(OCC)C(F)(F)C[C@H]1CO[C@@H](n2cc(C)c(=O)[nH]c2=O)[C@H]1F,,,cytopathic effect,>100 µM
Cc1cc(C)c(Nc2ccnc(Nc3ccc(C#N)cc3)n2)c(C)c1,LAI,,,0.0009 µM